# T1: KKMKKM{LYSN3}NH2
# T1 chain: KKMKKMX
# T2: QP5-Atto649N (KAAAAAAFK{LYSN3}NH2)
# T2 chain: KAAAAAAFKX
# T3: RRPRRP{LYSN3}NH2
# T3 chain: RRPRRPX
# T4: KKMKKMLys-Triazole-PEG4 Biotin
# T4 chain: KKMKKMX
# T5: KKPKKP{LYSN3}NH2
# T5 chain: KKPKKPX
# T6: AAPAAP{LYSN3}NH2
# T6 chain: AAPAAPX
# T7: LPWPDDDY{LYSN3}NH2
# T7 chain: LPWPDDDYX
# T8: DDPDDP{LYSN3}NH2
# T8 chain: DDPDDPX
# T9: GlyProArgPro
# T9 chain: GPRP
# T10: YPLPWPDDDY{LYSN3}NH2
# T10 chain: YPLPWPDDDYX
# T11: AAMAAM{LYSN3}NH2
# T11 chain: AAMAAMX
# T12: FPFPFP{LYSN3}NH2
# T12 chain: FPFPFPX
# Key:
# KKMKKM{LYSN3}NH2 = biological target: T1, KKMKKM{LYSN3}NH2
# [1] = biological target: T2, QP5-Atto649N (KAAAAAAFK{LYSN3}NH2)
# RRPRRP{LYSN3}NH2 = biological target: T3, RRPRRP{LYSN3}NH2
# [2] = biological target: T4, KKMKKMLys-Triazole-PEG4 Biotin
# KKPKKP{LYSN3}NH2 = biological target: T5, KKPKKP{LYSN3}NH2
# AAPAAP{LYSN3}NH2 = biological target: T6, AAPAAP{LYSN3}NH2
# [3] = biological target: Attor6g-1kPEG-ODN-DD60-Biotin
# LPWPDDDY{LYSN3}NH2 = biological target: T7, LPWPDDDY{LYSN3}NH2
# DDPDDP{LYSN3}NH2 = biological target: T8, DDPDDP{LYSN3}NH2
# GlyProArgPro = biological target: T9, GlyProArgPro
# YPLPWPDDDY{LYSN3}NH2 = biological target: T10, YPLPWPDDDY{LYSN3}NH2
# AAMAAM{LYSN3}NH2 = biological target: T11, AAMAAM{LYSN3}NH2
# FPFPFP{LYSN3}NH2 = biological target: T12, FPFPFP{LYSN3}NH2
Protein,"HPLC Assay Conv; 1 mM peptide, 50 nM enzyme, 30 C/1 hr (KKMKKM{LYSN3}NH2) [%]","HPLC Assay Conv; 37 uM Peptide, 100 nM Enzyme, 37 C/0.5 hr [1] [%]","HPLC Assay Conv; 1 mM peptide, 50 nM enzyme, 30 C/1 hr (RRPRRP{LYSN3}NH2) [%]","HPLC Assay Conv; 1 mM peptide, 150 nM enzyme, 30 C/1 hr [2] [%]","HPLC Assay Conv; 1 mM peptide, 50 nM enzyme, 30 C/1 hr (KKPKKP{LYSN3}NH2) [%]","HPLC Assay Conv; 1 mM peptide, 50 nM enzyme, 30 C/1 hr (AAPAAP{LYSN3}NH2) [%]","HPLC Assay Conv; 10 uM Peptide, 7 uM Enzyme, 37 C/0.5 hr [3] [%]","HPLC Assay Conv; 20 uM Q24 conjugate, 30 uM ypip, 30 C/0.3 hr [3] [%]","HPLC Assay Conv; 300 uM Peptide, 7 uM enzyme, 37 C/0.5 hr (LPWPDDDY{LYSN3}NH2) [%]","HPLC Assay Conv; 1 mM peptide, 700 nM enzyme, 30 C/6 hrs (DDPDDP{LYSN3}NH2) [%]","HPLC Assay Conv; 5 mM peptide, 50 nM enzyme, 30 C/1 hr (GlyProArgPro) [%]","HPLC Assay Conv; 300 uM Peptide, 7 uM enzyme, 37 C/0.5 hr (YPLPWPDDDY{LYSN3}NH2) [%]","HPLC Assay Conv; 1 mM peptide, 700 nM enzyme, 30 C/6 hrs (AAMAAM{LYSN3}NH2) [%]","HPLC Assay Conv; 1 mM Peptide, 7 uM Enzyme, 37 C/0.5 hr (FPFPFP{LYSN3}NH2) [%]"
rat aminopeptidase N (protein) KPWNQYRLPKTLIPDSYQVTLRPYLTPNEQGLYIFKGSSTVRFTCNETTNVIIIHSKKLNYTNKGNHRVALRALGDTPAPNIDTTELVERTEYLVVHLQGSLVKGHQYEMDSEFQGELADDLAGFYRSEYMEGGNKKVVATTQMQAADARKSFPCFDEPAMKASFNITLIHPNNLTALSNMLPKDSRTLQEDPSWNVTEFHPTPKMSTYLLAYIVSEFKYVEAVSPNRVQIRIWARPSAIDEGHGDYALQVTGPILNFFAQHYNTAYPLEKSDQIALPDFNAGAMENWGLVTYRESALVFDPQSSSISNKERVVTVIAHELAHQWFGNLVTVDWWNDLWLNEGFASYVEFLGADYAEPTWNLKDLIVLNDVYRVMAVDALASSHPLSSPANEVNTPAQISELFDSITYSKGASVLRMLSSFLTEDLFKKGLSSYLHTFQYSNTIYLDLWEHLQQAVDSQTAIKLPASVSTIMDRWILQMGFPVITVNTSTGEIYQEHFLLDPTSKPTRPSDFNYLWIVPIPYLKNGKEDHYWLETEKNQSAEFQTSSNEWLLLNINVTGYYQVNYDENNWRKIQNQLQTDLSVIPVINRAQIIHDSFNLASAGKLSITLPLSNTLFLASETEYMPWEAALSSLNYFKLMFDRSEVYGPMKRYLKKQVTPLFAYFKIKTNNWLDRPPTLMEQYNEINAISTACSSGLEECRDLVVGLYSQWMNNSDNNPIHPNLRSTVYCNAIAFGGEEEWNFAWEQFRKATLVNEADKLRSALACSNEVWILNRYLSYTLNPDYIRKQDATSTIVSIANNVVGQTLVWDFVRSNWKKLFEDYGGGSFSFANLIQGVTRRFSSEFELQQLEQFKEDNSATGFGSGTRALEQALEKTKANIKWVKENKDVVLKWFTENS,50,>95,55,>90,85,100,–,–,–,–,–,–,–,–
Y. pestis proline iminopeptidase (protein) MTQQEYQNRRQALLAKMAPGSAAIIFAAPEATRSADSEYPYRQNSDFSYLTGFNEPEAVLILVKSDETHNHSVLFNRIRDLTAEIWFGRRLGQEAAPTKLAVDRALPFDEINEQLYLLLNRLDVIYHAQGQYAYADNIVFAALEKLRHGFRKNLRAPATLTDWRPWLHEMRLFKSAEEIAVLRRAGEISALAHTRAMEKCRPGMFEYQLEGEILHEFTRHGARYPAYNTIVGGGENGCILHYTENECELRDGDLVLIDAGCEYRGYAGDITRTFPVNGKFTPAQRAVYDIVLAAINKSLTLFRPGTSIREVTEEVVRIMVVGLVELGILKGDIEQLIAEQAHRPFFMHGLSHWLGMDVHDVGDYGSSDRGRILEPGMVLTVEPGLYIAPDADVPPQYRGIGIRIEDDIVITATGNENLTASVVKDPDDIEALMALNHAGENLYFQE,–,–,–,–,–,–,100,100,100,0,100,100,0,100

# Source: patent publication US20250283886
